Data from ChEMBL document CHEMBL1800046, “Design, synthesis, and X-ray crystallographic studies of α-aryl substituted fosmidomycin analogues as inhibitors of Mycobacterium tuberculosis 1-deoxy-D-xylulose 5-phosphate reductoisomerase” (J Med Chem, 2011).

Assay: Inhibition of Mycobacterium tuberculosis DXR-catalyzed NADPH-dependent rearrangement and reduction of DXP to form MEP measured every 5 secs for 500 secs by spectrophotometric analysis

O=CN(O)CCC(c1ccc(Cl)c(Cl)c1)P(=O)(O)O (racemic)
IC50: 150 nM
